Measurements from PubChem BioAssay AID2234 (The Scripps Research Institute Molecular Screening Center, 2010).
This is a selection; strong and weak results do not stand in their true shares. The source made the active and inactive calls. Cut-off read from the data, not from the text of the source: active = inhibition above about 33%; inactive = the rest.

Sequences of proteins named here, by UniProt entry; tags and fusion partners are left off. A change or cut given only in a name is not applied to a line headed by its entry.
UniProt P03206: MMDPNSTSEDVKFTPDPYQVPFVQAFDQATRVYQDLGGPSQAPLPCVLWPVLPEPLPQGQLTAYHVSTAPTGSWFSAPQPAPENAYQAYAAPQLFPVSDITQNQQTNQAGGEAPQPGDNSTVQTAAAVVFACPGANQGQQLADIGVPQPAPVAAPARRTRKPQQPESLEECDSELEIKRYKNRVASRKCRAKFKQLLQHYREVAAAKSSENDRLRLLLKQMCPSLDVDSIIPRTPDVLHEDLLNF

Biological target: Lytic switch protein BZLF1 (Epstein-Barr virus (strain B95-8)) (UniProt P03206)
Test: Zta-DNA interaction blockers, Epstein-Barr virus – biochemical, fluorescence polarization, single concentration, counter-screen for EBNA-1 inhibitor project, primary screen (AID 2234)
Settings: ZTA-DNA binding, at 11 µM, active compounds read high

| Compound | inhibition |
| --- | --- |
| Nc1cccc2c([As](=O)(O)O)cccc12 | inactive: 21.1% |
| CCOP(=O)(Nc1cccc2ccccc12)OCC | inactive: -20.6% |
| COc1cc(C2NCCC3(OCCO3)C2(C)C)cc(OC)c1OC (stereo not drawn) | inactive: -8.5% |
| CS(=O)(=O)c1cc([N+](=O)[O-])c2no[n+]([O-])c2c1 | inactive: 1% |
| O=P(Nc1nccs1)(Oc1ccccc1)Oc1ccccc1 | inactive: 8.5% |
| O=P(Nc1nccs1)(c1ccccc1)c1nc2ccccc2s1 (stereo not drawn) | inactive: -4.88% |
| CCOP1(=S)c2c(C)nn(CCC#N)c2N=C(c2ccccc2F)N1C (stereo not drawn) | inactive: 8.49% |
| Nc1ccccc1[As](=O)(O)c1ccccc1 | inactive: 7.03% |
| O=C(O)COc1ccc([As](=O)(O)O)cc1[N+](=O)[O-] | inactive: -18.7% |
| NC(=O)Nc1ccc([As](=O)(O)O)cc1 | inactive: -4.99% |
| CN(C(=O)Cc1ccc(Cl)c(Cl)c1)[C@H]1CC[C@@]2(CCCO2)C[C@@H]1N1CCCC1 | inactive: 11.8% |
| O=[N+]([O-])c1ccc2c(c1)nnn2O | inactive: 16.3% |
| CN(C)C(=O)c1cc([N+](=O)[O-])cc2c1-c1c(cc([N+](=O)[O-])cc1[N+](=O)[O-])C2=O | inactive: 3.68% |
| CN(C(=O)Cc1ccccc1)[C@@H]1CC[C@]2(CCCO2)C[C@H]1N1CCCC1 | inactive: -12% |
| CCOP1(=S)c2c(C)nn(CCC#N)c2N=C(c2ccc(F)cc2)N1C (stereo not drawn) | inactive: -9.34% |
| N#CCCN(C(=O)COC(=O)C(O)(c1ccccc1)c1ccccc1)c1ccc(F)cc1 | inactive: 4.61% |
| COc1cc(C(=O)NCC2(N3CCOCC3)CCCCC2)ccc1OCC(C)C | inactive: 3.51% |
| O=[As](O)(c1ccc(O)cc1)c1ccccc1O | inactive: -4.91% |
| C[As](=O)(O)c1cccc(C(=O)O)c1 | inactive: -2.53% |
| Cc1ccc2nc3c(c(C)c2c1)CC(C(Cl)Cl)S3 (stereo not drawn) | inactive: -9.84% |
| Cc1ccc(OP(=O)(Nc2ccc([N+](=O)[O-])cn2)Oc2ccc(C)cc2)cc1 | inactive: -6.19% |
| CC(C)c1ccc(OP(=O)(Nc2ccccn2)Oc2ccccc2F)cc1 (stereo not drawn) | inactive: -14.6% |

| Compound | inhibition |
| --- | --- |
| ClCCSc1nnc(-c2cccnc2)o1 | inactive: -2.13% |
| O=[N+]([O-])c1cc([N+](=O)[O-])c(-c2ccn[nH]2)s1 | inactive: -17.8% |
| CC(C)NC(=O)NP(=O)(Oc1ccccc1)Oc1ccccc1 | inactive: -6.35% |
| CCN(CC)C(=S)SC(NC=O)C(Cl)(Cl)Cl (stereo not drawn) | inactive: -5.92% |
| Cc1cc(=O)[nH]c(N[N+](=O)[O-])n1 | inactive: 12.8% |
| O=C(OC1CN2CCC1CC2)C12CC3CC(CC(C3)C1)C2 (stereo not drawn) | inactive: -9.17% |
| Cc1c2c(nc3ccccc13)SC(C(Cl)Cl)C2 (stereo not drawn) | inactive: -2.39% |
| COc1cc(I)ccc1[As](=O)(O)O | inactive: -9% |
| COc1ccc2nc(NP(=O)(c3ccccc3)c3ccccc3)sc2c1 | inactive: 5.47% |
| COc1ccc(N/C(=N/P(=O)(N2CCOCC2)N2CCOCC2)N2CCOCC2)cc1 | inactive: -6.09% |
| COP1(=S)c2c(C)nn(CCC#N)c2N=C(c2ccc(F)cc2)N1C (stereo not drawn) | inactive: -15.4% |
| O=C(Nc1ccncc1[N+](=O)[O-])c1ccc([N+](=O)[O-])cc1[N+](=O)[O-] | inactive: 5.5% |
| O=C(COc1ccccc1)OC1CN2CCC1CC2 (stereo not drawn) | inactive: 0.25% |
| CCOC(=O)c1ccc(NC(=O)C(C)(CCl)SC)cc1 (stereo not drawn) | inactive: -9.02% |
| O=C(OC1CN2CCC1CC2)c1cccc([N+](=O)[O-])c1 (stereo not drawn) | inactive: 9.26% |
| CCC(C)N(CC(C)C)C(=S)SC(NC(C)=O)C(Cl)(Cl)Cl (stereo not drawn) | inactive: 3.86% |
| CCOC(=O)Nc1ccc([As](=O)(O)O)c(O)c1 | inactive: 8.53% |
| Cc1cc(SC(NC(=O)c2ccccc2)C(Cl)(Cl)Cl)nc(C(C)C)n1 (stereo not drawn) | inactive: 9.12% |
| CCOC(=O)Nc1cccc([As](=O)(O)O)c1 | inactive: 1.44% |
| O=P(Nc1ccccn1)(c1cccc2ccccc12)c1cccc2ccccc12 | inactive: 10.5% |
| Cc1cc(SC(NC=O)C(Cl)(Cl)Cl)ncn1 (stereo not drawn) | inactive: -5.67% |
